Results as given in PMC7712488 (Vaccines, 2020).

System: DQ0602
Experiment: DQ0602 peptide competition binding assay (vs Bio-EBV epitope, DELFIA TRF)
Conditions: Suppl Table 1, motif in Arepanrix; 25 nM DQ0602, 100 nM HLA-DM, 1 μM Bio-EBV, 40 μM competitor peptide, pH 4.6, 3 days 37 °C, duplicate; Eu TRF relative to Bio-EBV alone; <25% strong binder, 25–50% weak binder

QGRGVFELSD[E > D]KAASPIVPS was tested, and the “%DQ6-EBV Binding (AREPANRIX motif)” value was 25.14%.
